# In-gel DMS probing of monomeric and dimeric HIV-1 RNA

RNA: 5' end of the HIV-1 NL4-3 genome, made in vitro. Positions 1-437 read:
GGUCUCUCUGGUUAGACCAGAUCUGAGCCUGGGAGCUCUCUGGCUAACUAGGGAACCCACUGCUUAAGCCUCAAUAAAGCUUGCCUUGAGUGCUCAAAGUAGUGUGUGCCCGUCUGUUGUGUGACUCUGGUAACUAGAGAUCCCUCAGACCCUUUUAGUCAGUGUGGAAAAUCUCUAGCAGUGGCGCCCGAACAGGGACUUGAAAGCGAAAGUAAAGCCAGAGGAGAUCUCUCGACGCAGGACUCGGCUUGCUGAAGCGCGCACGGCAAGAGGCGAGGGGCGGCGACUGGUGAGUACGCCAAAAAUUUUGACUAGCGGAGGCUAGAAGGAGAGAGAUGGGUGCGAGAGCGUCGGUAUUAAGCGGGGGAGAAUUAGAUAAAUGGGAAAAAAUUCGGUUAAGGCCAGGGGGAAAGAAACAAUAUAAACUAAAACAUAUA

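Randomly mutated transcripts starting with one, two or three G (1G, 2G, 3G), capped or uncapped, were folded for 30 min at 37 °C. Monomer and dimer bands were cut from native gels after folding in high salt (300 mM KCl, 5 mM MgCl2) or low salt (40 mM KCl, 0.1 mM MgCl2). Gel slices were treated with 170 mM dimethyl sulfate for 15 min at 37 °C and read by mutational profiling against an ethanol control.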

Values are winsor-normalised DMS reactivities of A and C; higher means more reactive, usually unpaired. One numbering serves 1G, 2G and 3G. A position is written with its base.

C299 (domain SL2) read 1G uncapped low-salt monomer 0.05; 2G capped high-salt dimer 0.07.
A101 (domain PolyA) read 1G uncapped low-salt monomer 0.19; 2G capped high-salt dimer 0.14.
C38 (domain TAR) read 1G uncapped low-salt monomer 0.05; 2G capped high-salt dimer 0.03.
A203 (domain PBS) read 1G uncapped low-salt monomer 0.49; 2G capped high-salt dimer 0.47.
C274 (domain SL1) read 1G uncapped low-salt monomer 0.69; 2G capped high-salt dimer 0.21.
C312 (domain SL3) read 1G uncapped low-salt monomer 0.09; 2G capped high-salt dimer 0.07.
C60 (domain PolyA) read 1G uncapped low-salt monomer 0.24; 2G capped high-salt dimer 0.19.
A371 read 1G uncapped low-salt monomer 0.87; 2G capped high-salt dimer 0.91.
A334 (domain AUG) read 1G uncapped low-salt monomer 0.57; 2G capped high-salt dimer 0.38.
C188 (domain PBS) read 1G uncapped low-salt monomer 0.09; 2G capped high-salt dimer 0.06.
C267 (domain SL1) read 1G uncapped low-salt monomer 0.20; 2G capped high-salt dimer 0.05.
C231 (domain CU) read 1G uncapped low-salt monomer 0.14; 2G capped high-salt dimer 0.12.
A276 (domain SL1) read 1G uncapped low-salt monomer 1.03; 2G capped high-salt dimer 0.34.
C146 (domain PBS) read 1G uncapped low-salt monomer 0.13; 2G capped high-salt dimer 0.12.
A210 (domain PBS) read 1G uncapped low-salt monomer 0.55; 2G capped high-salt dimer 0.45.
A414 read 1G uncapped low-salt monomer 0.44; 2G capped high-salt dimer 0.49.
A435 read 1G uncapped low-salt monomer 0.48; 2G capped high-salt dimer 0.48.
C29 (domain TAR) read 1G uncapped low-salt monomer 0.14; 2G capped high-salt dimer 0.08.
C72 (domain PolyA) read 1G uncapped low-salt monomer 0.11; 2G capped high-salt dimer 0.09.
C262 (domain SL1) read 1G uncapped low-salt monomer 0.36; 2G capped high-salt dimer 0.21.
A239 read 1G uncapped low-salt monomer 0.57; 2G capped high-salt dimer 0.72.
A330 read 1G uncapped low-salt monomer 0.89; 2G capped high-salt dimer 0.81.
C248 (domain SL1) read 1G uncapped low-salt monomer 0.06; 2G capped high-salt dimer 0.03.
C111 (domain U5) read 1G uncapped low-salt monomer 0.26; 2G capped high-salt dimer 0.26.
C207 (domain PBS) read 1G uncapped low-salt monomer 0.51; 2G capped high-salt dimer 0.56.
C236 read 1G uncapped low-salt monomer 0.47; 2G capped high-salt dimer 0.41.
C432 read 1G uncapped low-salt monomer 0.85; 2G capped high-salt dimer 0.87.
A433 read 1G uncapped low-salt monomer 0.69; 2G capped high-salt dimer 0.71.
C233 (domain CU) read 1G uncapped low-salt monomer 0.26; 2G capped high-salt dimer 0.14.
C134 (domain PBS) read 1G uncapped low-salt monomer 0.14; 2G capped high-salt dimer 0.15.
C193 (domain PBS) read 1G uncapped low-salt monomer 0.77; 2G capped high-salt dimer 0.79.

The opening 2 entries, copied out:

C299 (domain SL2): 1G uncapped low-salt monomer 0.05; 2G capped high-salt dimer 0.07.
A101 (domain PolyA): 1G uncapped low-salt monomer 0.19; 2G capped high-salt dimer 0.14.

Reference: Ye et al. 2022, doi:10.1038/s41594-022-00746-2.